{
  "source": "patent US20250115943A1",
  "about": "“SYSTEM AND METHOD FOR ANTIMICROBIAL SUSCEPTIBILITY TESTING” (priority 2023, published 2025)",
  "assay_in_all_cases": "CytoSPAR BLAST antibiotic susceptibility test",
  "assay_type_in_all_cases": "cell-based",
  "key": {"[1]": {"system": "E. coli LSI 770", "conditions": "for Dilution Difference (BLAST-rBMD): Table 7; for Dilution Difference (BLAST-rBMD) Isolates / Dilution Difference (BLAST-rBMD) Spiked Urine: Table 8", "description": "(§1) The disclosed technology, which is referred to as the CytoSPAR BLAST (Bacteria Labeling Antibiotic Susceptibility Test) system, is used to quantitatively assess bacterial minimal inhibitory concentration of antibiotics for in vitro susceptibility testing. Used as an aid in diagnosis for clinicians in determining potential treatment options for patients suspected of having a microbial infection, BLAST is intended to determine susceptibility of microorganisms to the listed antibiotics (or other antimicrobials) according to manufacturer's standards. The system is intended for use with clinical isolates from liquid culture and colonies grown on agar (solid medium) or directly from urine samples. Certain implementations of BLAST determine antibiotic susceptibility for a wide range of bacteria obtained from various types of patient samples, including samples from individuals suffering from urinary tract infections. The disclosed technology includes a high-throughput assay that directly detects bacterial susceptibility to a library of frequently used antibiotics and covers both Gram-negative and Gram-positive bacteria.\n(§2) The test incorporates a non-canonical amino acid (ncAA) into newly produced proteins. The incorporated ncAA includes a reactive group which allows a specific modification and detection of the living bacteria. The assay involves bacterial incorporation of the ncAA, a chemical reaction between a reactive group and a fluorophore-tagged ligand, and detection of the newly fluorescent-tagged bacteria using a fluorescent plate reader or functionally similar device. The ncAA is added to bacterial growth media and is incorporated into newly synthesized bacterial proteins. The reactive groups on the ncAA are not naturally found in bacteria and act as a specific reactive group for bacteria undergoing active protein synthesis. […] The entire process is performed in a microtiter filter plate for high-throughput scale-up. Alternatively, a normal 96-well plate can also be used in which case centrifugation is used to wash the plate instead of filtration.\n(§3) In an example embodiment, bacterial samples are first diluted and incubated in acclimatization media. After treatment with one or more antimicrobials, the ncAA is added and is taken up by living bacteria during protein biosynthesis in a process called labeling. […] The Click-Chemistry reaction between the alkyne group of the ncAA and the azide group of the fluorophore-tagged ligand requires the presence of copper in the reduced state-copper (I). In other implementations, the functional groups of the click chemistry reaction can be changed so that the ncAA has the azide group and the dye has the alkyne group. […] Other reducing agents may be used in the BLAST assay, for example, aldoses (sugars) including glyceraldehyde, glucose, and ribose to replace sodium ascorbate. Likewise, alternate chelators may be used (e.g., histidine in place of BTTAA). In some implementations, metal-free click chemistry reactions are performed without using copper.\n(§4) Using the BLAST system, tests can be performed on isolates or direct urine samples. Isolates may be from urine, blood, or other body fluids. Isolated bacteria may be either Gram-positive or Gram-negative. In an example implementation, living bacterial samples in acclimatization media (Buffer A) are distributed in a microtiter filter plate, wherein certain predetermined wells include antibiotics of interest at different concentrations. These antibiotics are arrayed with increasing concentrations in adjacent wells so that the bacterial response can be measured against each specific concentration. The response is measured quantitatively, and a value that corresponds to the ability of the bacteria to metabolize and grow is measured."}, "[2]": {"system": "P. mirabilis LSI 4933", "conditions": "Table 7", "description": "as §1, §2, §3, §4"}, "[3]": {"system": "P. mirabilis LSI 4698", "conditions": "Table 7", "description": "as §1, §2, §3, §4"}, "[4]": {"system": "E. coli ATCC 25922", "conditions": "for Dilution Difference (BLAST-rBMD): Table 7; for Dilution Difference (BLAST-rBMD) Isolates / Dilution Difference (BLAST-rBMD) Spiked Urine: Table 8", "description": "as §1, §2, §3, §4"}, "[5]": {"system": "S. aureus ATCC 29213", "conditions": "for Dilution Difference (BLAST-rBMD): Table 7; for Dilution Difference (BLAST-rBMD) Isolates / Dilution Difference (BLAST-rBMD) Spiked Urine: Table 8"}},
  "data": [
    {"smiles": "Cc1nnc(SCC2=C(C(=O)O)N3C(=O)[C@@H](NC(=O)Cn4cnnn4)[C@H]3SC2)s1", "note": "[Cefazolin, cefazolin]", "values": [
      {"measurement": "Dilution Difference (BLAST-rBMD)", "setting": "[1]", "result": "both off-scale"},
      {"measurement": "Dilution Difference (BLAST-rBMD) Isolates", "setting": "[1]", "result": "both off-scale"},
      {"measurement": "Dilution Difference (BLAST-rBMD) Spiked Urine", "setting": "[1]", "result": "both off-scale"},
      {"measurement": "Dilution Difference (BLAST-rBMD)", "setting": "[2]", "result": "−1"},
      {"measurement": "Dilution Difference (BLAST-rBMD)", "setting": "[3]", "result": "−2"},
      {"measurement": "Dilution Difference (BLAST-rBMD)", "setting": "[4]", "result": "−1"},
      {"measurement": "Dilution Difference (BLAST-rBMD) Isolates", "setting": "[4]", "result": 1},
      {"measurement": "Dilution Difference (BLAST-rBMD) Spiked Urine", "setting": "[4]", "result": "−1"},
      {"measurement": "Dilution Difference (BLAST-rBMD)", "setting": "[5]", "result": "−2"},
      {"measurement": "Dilution Difference (BLAST-rBMD) Isolates", "setting": "[5]", "result": "−2"},
      {"measurement": "Dilution Difference (BLAST-rBMD) Spiked Urine", "setting": "[5]", "result": "−1"}
    ]},
    {"smiles": "C[C@H]1c2cccc(O)c2C(=O)C2=C(O)[C@]3(O)C(=O)C(C(N)=O)=C(O)[C@@H](N(C)C)[C@@H]3[C@@H](O)[C@@H]21", "note": "[Doxycycline, doxycycline]", "values": [
      {"measurement": "Dilution Difference (BLAST-rBMD)", "setting": "[1]", "result": 0},
      {"measurement": "Dilution Difference (BLAST-rBMD) Isolates", "setting": "[1]", "result": 0},
      {"measurement": "Dilution Difference (BLAST-rBMD) Spiked Urine", "setting": "[1]", "result": 0},
      {"measurement": "Dilution Difference (BLAST-rBMD)", "setting": "[2]", "result": "−2"},
      {"measurement": "Dilution Difference (BLAST-rBMD)", "setting": "[3]", "result": "−3"},
      {"measurement": "Dilution Difference (BLAST-rBMD)", "setting": "[4]", "result": "−2"},
      {"measurement": "Dilution Difference (BLAST-rBMD) Isolates", "setting": "[4]", "result": "−2"},
      {"measurement": "Dilution Difference (BLAST-rBMD) Spiked Urine", "setting": "[4]", "result": "−1"},
      {"measurement": "Dilution Difference (BLAST-rBMD)", "setting": "[5]", "result": "−2"},
      {"measurement": "Dilution Difference (BLAST-rBMD) Isolates", "setting": "[5]", "result": "−2"},
      {"measurement": "Dilution Difference (BLAST-rBMD) Spiked Urine", "setting": "[5]", "result": "−2"}
    ]},
    {"smiles": "C[C@H]1COc2c(N3CCN(C)CC3)c(F)cc3c(=O)c(C(=O)O)cn1c23", "note": "[Levofloxacin, levofloxacin]", "values": [
      {"measurement": "Dilution Difference (BLAST-rBMD)", "setting": "[1]", "result": 0},
      {"measurement": "Dilution Difference (BLAST-rBMD) Isolates", "setting": "[1]", "result": 0},
      {"measurement": "Dilution Difference (BLAST-rBMD) Spiked Urine", "setting": "[1]", "result": 0},
      {"measurement": "Dilution Difference (BLAST-rBMD)", "setting": "[2]", "result": 0},
      {"measurement": "Dilution Difference (BLAST-rBMD)", "setting": "[3]", "result": "−1"},
      {"measurement": "Dilution Difference (BLAST-rBMD)", "setting": "[4]", "result": "−1"},
      {"measurement": "Dilution Difference (BLAST-rBMD) Isolates", "setting": "[4]", "result": "−1"},
      {"measurement": "Dilution Difference (BLAST-rBMD) Spiked Urine", "setting": "[4]", "result": "−1"},
      {"measurement": "Dilution Difference (BLAST-rBMD)", "setting": "[5]", "result": 0},
      {"measurement": "Dilution Difference (BLAST-rBMD) Isolates", "setting": "[5]", "result": 0},
      {"measurement": "Dilution Difference (BLAST-rBMD) Spiked Urine", "setting": "[5]", "result": 0}
    ]}
  ]
}
